A mixed list of measured activities; the numbers were collected in NIAID ChemDB.

Shared fields: growth or infection tests; species: Hepatitis C virus; endpoint: EC50

Two numbers with a dash give a range or band. An empty or dashed field is not shown. Lines come from different laboratories, so protocols vary. ECn: concentration that inhibits the pathogen or its effect by n%.

SMILES	mutations	cells	strain or isolate	method	value
CC1(C)CC(=O)C2=C(C1)Nc1c(O)cccc1NC2c1ccncc1	-	-	1b	luciferase / reporter gene / replicon	>100 µM
COCC(C)N(C(=O)C1CCC(C)CC1)c1cc(-c2ccc(NC(=O)c3cn(C)cn3)cc2)sc1C(=O)O	-	-	1a	replicon	<0.5 µM
O=C(O)/C=C/c1ccc(NCC2(NC(=O)c3ccc4c(C5CCCCC5)c5n(c4c3)CC(C(=O)N3CCCCC3)Cc3ccccc3-5)CCCC2)cc1	-	Huh7	-	replicon	0.01–1 µM
CC1(C)CC(=O)C2=C(C1)Nc1c(O)cccc1N(C(=O)c1ccccn1)[C@@H]2c1ccc(OCc2ccccc2)cc1F	-	-	1b	luciferase / reporter gene / replicon	10.07 µM
CCOc1nc(NCc2ccc(S(N)(=O)=O)cc2)nc2ccc(-c3ccc(NC(=O)NCCN4CCOCC4)cc3)nc12	-	-	-	replicon	<0.1 µM
CC1CCC(C(=O)N(c2cc(-c3ccc(NC(=O)c4ccco4)cc3)sc2C(=O)O)C(C)C)CC1	-	-	1a	replicon	<0.5 µM
CC1(C)CC(=O)C2=C(C1)Nc1c(O)cccc1N(C(=O)CCC(=O)N[C@H](Cc1cnc[nH]1)C(=O)O)C2c1ccc(OCc2ccccc2)cc1Cl	-	-	1b	luciferase / reporter gene / replicon	>100 µM
COC(=O)/C=C/c1ccc(NC(=O)C2(NC(=O)c3ccc4c(C5CCCCC5)c5n(c4c3)CCCc3nccnc3-5)CCCC2)cc1	-	Huh7	-	replicon	1–10 µM
NC(=S)Nc1cccc(OCCCCCOc2ccc(-c3ccoc3)cc2)c1	-	Ava5-EG(delta4AB)SEAP	-	reporter gene / fluorescence	0.001–1 µM
COC(=O)Nc1ccc(-c2ccc3nc(N)nc(NCCS(C)(=O)=O)c3n2)cc1	-	Huh7	-	replicon	0.3–1 µM
O=C(O)/C=C/c1ccc(NC(=O)C2(NC(=O)c3ccc4c(C5CCCCC5)c5n(c4c3)CCCc3occc3-5)CCCC2)cc1	-	Huh7	-	replicon	0.01–1 µM
CC(C)(CCOc1ccc(-c2ccccc2)cc1)CCOc1cccc(NC(N)=S)c1	-	Ava5-EG(delta4AB)SEAP	-	reporter gene / fluorescence	0.001–1 µM
O=C(NS(=O)(=O)C1CC1)c1ccc2c(C3CCCCC3)c3n(c2c1)CC(C(=O)N1CCOCC1)Cc1ccccc1-3	-	Huh7	-	replicon	0.01–1 µM
CCOc1nc(NCc2ccc(C(=O)N(C)C)cc2)nc2ccc(-c3ccc(F)cc3)nc12	-	-	-	replicon	<0.1 µM
CC1CCC(C(=O)N(CC2CC2)c2cc(-c3ccc(NC(=O)c4cscn4)cc3)sc2C(=O)O)CC1	-	-	1b	replicon	<0.5 µM
C[C@@H](O)C(=O)Nc1ccc(-c2ccc3nc(NCc4ccc(S(N)(=O)=O)cc4)nc(NCC(F)(F)F)c3n2)cc1	-	-	-	replicon	<0.1 µM
CN1CCN(c2ccc(OCCCCCOc3cccc(NC(N)=S)c3)cc2)CC1	-	Ava5-EG(delta4AB)SEAP	-	reporter gene / fluorescence	0.001–1 µM
CC1CCC(C(=O)N(c2cc(-c3ccc(NC(=O)c4cscn4)c(Cl)c3)sc2C(=O)O)C(C)C)CC1	-	-	1b	replicon	<0.5 µM
CCC(=O)Nc1ccc(-c2ccc3nc(N)nc(OCCOC)c3n2)cc1	-	Huh7	-	replicon	0.3–1 µM
COC(=O)c1ccc2c(C3CCCCC3)c3n(c2c1)CC(C(=O)O)Cc1ccccc1-3	-	Huh7	-	replicon	>10 µM
CC1(C)CC(=O)C2=C(C1)Nc1c(O)cccc1N(C(=O)NCC(=O)N1CCOCC1)C2c1ccc(OCc2ccccc2)cc1Cl	-	-	1b	luciferase / reporter gene / replicon	16.46 µM
CN(CC(F)(F)F)c1nc(NCc2ccc(S(N)(=O)=O)cc2)nc2ccc(-c3ccc(F)cc3)nc12	-	-	-	replicon	<0.1 µM
NC(=S)Nc1cccc(OCCCCCOc2cccc3ccccc23)c1	-	Ava5-EG(delta4AB)SEAP	-	reporter gene / fluorescence	0.001–1 µM
Nc1ncc(-c2ccc3nc(NCc4ccc(S(N)(=O)=O)cc4)nc(NCC(F)(F)F)c3n2)s1	-	-	-	replicon	<0.1 µM
CCOC(=O)/C=C/c1ccc(NC(=O)C2(NC(=O)c3ccc4c(C5CCCCC5)c5n(c4c3)CC(=O)Nc3ccccc3-5)CCCCC2)cc1	-	Huh7	-	replicon	0.01–1 µM
CCOc1nc(NCCOC)nc2ccc(-c3ccc(F)cc3)nc12	-	-	-	replicon	<0.1 µM
Cc1cccc(C(=O)Nc2ccc(-c3cc(N(C(=O)C4CCC(C)CC4)C(C)C)c(C(=O)O)s3)cc2)n1	-	-	1a	replicon	<0.5 µM
COCCNC(=O)CCC(=O)N1c2cccc(O)c2NC2=C(C(=O)CC(C)(C)C2)C1c1ccc(OCc2ccccc2)cc1Cl	-	-	1b	luciferase / reporter gene / replicon	24.74 µM
O=C1Cn2c(c(C3CCCCC3)c3ccc(C(=O)NS(=O)(=O)C4CC4)cc32)-c2ccccc2N1	-	Huh7	-	replicon	0.01–1 µM
COC(=O)N[C@H](C(=O)N1CCCC1c1ncc(-c2ccc(-c3ccc(-c4cnc([C@@H]5CC(C)CN5C(=O)[C@@H](NC(=O)CO)C(C)C)[nH]4)cc3)cc2)[nH]1)C(C)C	Y93N	ET	1b	luciferase	0.00013 µM
CN(CCO)C(=O)C1=Cc2ccccc2C2=C(C3CCCCC3)c3cc(C(=O)NS(=O)(=O)N(C)C)ccc3C2C1	-	Huh7	-	replicon	0.01–1 µM
NS(=O)(=O)c1ccc(CNc2nc(NC3CC3)c3nc(-c4ccc(F)c(NS(=O)(=O)C5CC5)c4)ccc3n2)cc1	-	-	-	replicon	<0.1 µM
NC(=S)Nc1ccc(OCCCCCOc2ccc(F)cc2F)cc1	-	Ava5-EG(delta4AB)SEAP	-	reporter gene / fluorescence	0.001–1 µM

4 of the rows above, restated:

SMILES | mutations | cells | strain or isolate | method | value
CC(C)(CCOc1ccc(-c2ccccc2)cc1)CCOc1cccc(NC(N)=S)c1 | - | Ava5-EG(delta4AB)SEAP | - | reporter gene / fluorescence | 0.001–1 µM
COCC(C)N(C(=O)C1CCC(C)CC1)c1cc(-c2ccc(NC(=O)c3cn(C)cn3)cc2)sc1C(=O)O | - | - | 1a | replicon | <0.5 µM
CN(CC(F)(F)F)c1nc(NCc2ccc(S(N)(=O)=O)cc2)nc2ccc(-c3ccc(F)cc3)nc12 | - | - | - | replicon | <0.1 µM
NC(=S)Nc1cccc(OCCCCCOc2ccc(-c3ccoc3)cc2)c1 | - | Ava5-EG(delta4AB)SEAP | - | reporter gene / fluorescence | 0.001–1 µM